# Screening data, single-dose tests

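Whole-cell growth test on Mycobacterium tuberculosis, read after 4 days in a medium based on cholesterol and the lipid DPPC; the read-out is not stated. Concentration: 500 µM. Higher reads as more growth inhibition (inferred: compounds with an IC50 in retests scored well above the rest). About 18,000 compounds were tested under these conditions; 5% (about 900) showed 50% or more at least once.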

Results are given as percent effect.
How 0% and 100% were set is not recorded. Most values in the screen are low, and negative values occur.
This is part of a subset picked to be rich in strong results.

* O=C(Cn1cncn1)Nc1ccc(I)cn1 | -15.48%
* CC(C)CC(C)Oc1cc(CN)ccn1 (stereo not shown) | 51.12%
* O=S(=O)(CC1CCOC1)N1CCN(CCO)CC1 (stereo not shown) | -13.33%
* CCC(O)(CN)c1ccc(Cl)cc1 (stereo not shown) | 6.801%
* COCCc1noc(C2CCN(CC(N)=O)CC2)n1 | -12.44%
* COc1ccccc1CCNC(=O)CN | 2.516%
* CNC(=O)NC(=O)CCN1CCCCC1 | 12.45%
* NCC1CCN(C2CCCC2)C1 (stereo not shown) | 2.928%
* CC(=O)NCC(=O)NCCc1ccc(O)cc1 | 5.397%
* CCS(=O)(=O)N(C)CC(=O)Nc1cc(C)on1 | 0.695%
* CN(CCCNS(N)(=O)=O)c1ccccc1F | 15.46%
* Cc1ccc(C(=O)Nc2nc(C)cs2)cn1 | 36.73%
* OCC1CCCN(Cc2cccc3c2OCO3)C1 (stereo not shown) | 0.2751%
* N#CCCCn1ccccc1=O | -7.093%
* COC(=O)c1cccc(NC(=O)NC[C@@H]2CCCN2)c1 | -1.86%
* O=C(NCc1ccnc(N2CCCC2)c1)c1ccsc1 | 107.4%
* Cc1nnc(CCNC(=O)C2CC(=O)N(C)C2(C)C)s1 (stereo not shown) | -5.287%
* COCc1nc(C)c(CNC(=O)c2cccc(C)n2)s1 | 10.86%
* Cc1cc(C(=O)Nc2ccc(C(N)=O)cc2)no1 | -13.98%
* CS(=O)(=O)N1CCN(C(=O)c2cc(C3CC3)on2)CC1 | 19.38%
* CNC(=O)CNc1ncc(C(F)(F)F)cc1Cl | 8.343%
* COCCC(=O)Nc1ncn(Cc2ccc(Cl)cc2)n1 | 6.878%
* COc1ccc(CNC(=O)CCNC(=O)C(C)C)cc1 | -5.26%
* CCOc1cccc(CN2CCN(CCO)CC2)c1O | 8.363%
* CN(C)C[C@@H]1[C@H]2CN(Cc3ccc(CO)o3)C[C@@H]12 | -4.349%
* CN1CCC[C@@H]1CN1CCN(C(=O)c2ccc[nH]2)CC1 | -1.16%
* CN(C(=O)c1n[nH]c2ccccc12)[C@H]1COC[C@@H]1O | 4.96%
* Cc1ccc2c(c1)OC(C)C(=O)N2 (stereo not shown) | 10.89%
* c1cn(C2CCCNC2)nn1 (stereo not shown) | -11.75%
* NS(=O)(=O)N1CCN(Cc2cc3ccccc3s2)CC1 | 3.244%
* CCC1=NOC(CNC(=O)c2cc(=O)c(OC)c[nH]2)C1 (stereo not shown) | 12.55%
* CN(C)c1cc(CNc2ccc(C#N)cn2)ccn1 | 70.54%
* Cc1nnc(NCc2ccc3nonc3c2)o1 | 9.088%
* C=C(C)COc1cccc(NC(=O)N(C)CCO)c1 | 35.94%
* CNC1(CO)CCc2ccccc21 (stereo not shown) | 1.489%
* Cn1c(NC(=O)c2ccccc2I)cc(=O)n(C)c1=O | -6.809%
* CCN(CC)C1CCN(C(=O)Nc2cccnn2)C1 (stereo not shown) | 2.615%
* CN(C)c1nnc(SCCCC#N)s1 | -1.797%
* CC(C)N(CCS(=O)(=O)c1ccccc1)CC(N)=O | 50.53%
* NS(=O)(=O)NCc1ccc2c(c1)OCO2 | 21.21%
* CC(C)(C)OCCOc1nnc2ccccn12 | 19.23%
* Cc1cc(C)cc(C(O)Cn2ccnc2S(C)(=O)=O)c1 (stereo not shown) | 9.468%
* Cc1cnccc1NCCNC(=O)CCC(F)(F)F | -9.138%
* Cc1nnnn1CCC(=O)N1CC(N2CCCCC2)C1 | -10.81%
* COCc1noc(C2CCN(CC(F)(F)F)CC2)n1 | 41.09%
* CCC(O)(CC)CNc1nnnn1-c1ccc(C)cc1 | 16.54%
* CCOc1ncc(C(=O)NCC(C)(O)C(C)C)cc1Cl (stereo not shown) | 79.73%
* CCc1ncc2c(n1)CNCC2 | -41.55%
* Cc1nc(CN(C)C(=O)c2nc(C(C)C)cs2)no1 | 55.46%
* O=C(Cc1cccc(F)c1)NCCn1ccnc1 | 4.789%
* Cc1ncsc1C(=O)NC1CCCCNC1=O (stereo not shown) | -11.59%
* Cn1ccsc1=NC(=O)c1ccc(OCC(N)=O)cc1 | 55.56%
* CCN(CC(=O)NCc1ccc(Cl)s1)S(C)(=O)=O | 21.91%
* CC(C)n1cc(Br)cc1C(=O)NC1=NCCS1 | 71.15%
* CNC(=O)C1CCCCN1Cc1cc(OC)ccn1 (stereo not shown) | -8.596%
* O=C(c1cscn1)N1CCN(c2ccc(Cl)cn2)CC1 | 85.19%
* O=C(NCC(=O)c1cccs1)c1ccon1 | 31.63%
* O=C1[C@H]2CNC[C@H]2C(=O)N1Cc1ccccc1 | -3.353%
* Cc1noc(NC(=O)c2ccc(C(F)(F)F)nc2C)n1 | 100.7%

The last 4 entries again:

| structure | Percent Effect |
|---|---|
| `O=C(c1cscn1)N1CCN(c2ccc(Cl)cn2)CC1` | 85.19 |
| `O=C(NCC(=O)c1cccs1)c1ccon1` | 31.63 |
| `O=C1[C@H]2CNC[C@H]2C(=O)N1Cc1ccccc1` | -3.353 |
| `Cc1noc(NC(=O)c2ccc(C(F)(F)F)nc2C)n1` | 100.7 |

Source: ChEMBL document CHEMBL3988442, “University of Dundee, Small-Polar-MMV Screening Library” (2021).